Measurements taken from article PMC11281344 (Viruses, 2024).

The chains behind the UniProt entries cited, without tags or fusion partners. Residues count along the entry.
UniProt P03305, 1863-2332 limits assumed: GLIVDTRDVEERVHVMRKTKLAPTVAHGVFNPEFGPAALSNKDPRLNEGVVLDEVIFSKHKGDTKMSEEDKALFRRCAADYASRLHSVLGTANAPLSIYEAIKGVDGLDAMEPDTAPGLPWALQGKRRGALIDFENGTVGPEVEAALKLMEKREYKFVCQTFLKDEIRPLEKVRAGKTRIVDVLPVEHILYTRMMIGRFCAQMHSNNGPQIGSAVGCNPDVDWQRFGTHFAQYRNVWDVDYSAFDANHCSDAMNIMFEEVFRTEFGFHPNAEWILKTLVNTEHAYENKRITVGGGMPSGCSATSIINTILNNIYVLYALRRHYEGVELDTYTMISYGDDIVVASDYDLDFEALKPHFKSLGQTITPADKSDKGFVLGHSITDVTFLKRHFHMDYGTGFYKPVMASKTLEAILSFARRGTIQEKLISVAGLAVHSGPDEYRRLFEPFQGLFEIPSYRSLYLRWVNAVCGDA

Biological target: FMDV 3D^pol (Foot-and-mouth disease virus serotype O, UniProt P03305)
Assay: cell-based
Details: IC50 of FMDV 3Dpol activity (GFP expression)

Structure (SMILES): CC1=CC(=O)[C@@H](O)[C@]2(C)[C@H]3[C@@H](O)[C@H](O)[C@@]4(C)OC[C@@]35[C@@H](C[C@@H]12)OC(=O)[C@H](O)[C@]54O [Bruceine D]
- IC50: 370 to 390 nM
